These results are taken from PubChem BioAssay (NCATS).

This is a selection; strong and weak results do not stand in their true shares. Results filed as inconclusive are left out. Activity calls are given as the source filed them. Calls follow the shape of the dose curve; as a rule, active = well fitted inhibition curve with a large enough effect; inconclusive = small, poorly fitted or top-dose-only effect; inactive = flat fitted curve, though single readings scatter.
Potency is read from the fitted curve at half-maximal effect.

One assay deals with SC27B. The experiment in a line: qHTS profiling for inhibitors of Plasmodium falciparum proliferation (AID 504749). Also: nearly all actives have a fitted effect of over 60% in size.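 As to activity, negative = inhibition: 0% = DMSO vehicle and full inhibition = artemisinin control.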 Conditions: P. falciparum in erythrocytes, SYBR Green DNA, 72 h; at 28.7 µM (top of the series) unless noted. A digest of the protocol:
(§1)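 Each compound contacts P. falciparum-infected red blood cells for 72 h at 37 C; lysis buffer (Tris, EDTA, saponin, Triton X, SYBR Green I) is added and fluorescence measured next morning; values normalized to controls.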
Turning to `CC(C)OP(=O)(F)OC(C)C`, the activity, negative = inhibition is inactive: 1.32%.

On to `O=[N+]([O-])c1cccc([N+](=O)[O-])c1`, for which the activity, negative = inhibition is inactive: 6.04%.

Turning to `C/C1=C2N=C(/C=C3N=C(/C(C)=C4\[N-][C@@](C)([C@H]5N=C1[C@@](C)(CCC(=O)NC[C@H](C)OP(=O)([O-])O[C@@H]1[C@H](O)[C@H](n6cnc7cc(C)c(C)cc76)O[C@@H]1CO)[C@@H]5CC(N)=O)[C@](C)(CC(N)=O)[C@H]4CCC(N)=O)[C@@](C)(CC(N)=O)[C@@H]\3CCC(N)=O)C(C)(C)[C@@H]/2CCC(N)=O.[C-]#N.[Co+3]`, the activity, negative = inhibition is inactive: 2.19% [at 12.8 µM].

The next assay deals with TAB109. The description is as above. Conditions: P. falciparum in erythrocytes, SYBR Green DNA, 72 h; series mostly up to 28.7 µM. A digest of the protocol: as §1
For `O=[N+]([O-])OCC(CO[N+](=O)[O-])(CO[N+](=O)[O-])CO[N+](=O)[O-]`, the Potency is active: 8.91 µM.

For the compound `CC(C)OP(=O)(F)OC(C)C`, the Potency entry was “inactive”.

For `O=[N+]([O-])c1cccc([N+](=O)[O-])c1`, the Potency entry is “inactive”.

For `C/C1=C2N=C(/C=C3N=C(/C(C)=C4\[N-][C@@](C)([C@H]5N=C1[C@@](C)(CCC(=O)NC[C@H](C)OP(=O)([O-])O[C@@H]1[C@H](O)[C@H](n6cnc7cc(C)c(C)cc76)O[C@@H]1CO)[C@@H]5CC(N)=O)[C@](C)(CC(N)=O)[C@H]4CCC(N)=O)[C@@](C)(CC(N)=O)[C@@H]\3CCC(N)=O)C(C)(C)[C@@H]/2CCC(N)=O.[C-]#N.[Co+3]`, the Potency entry was “inactive”.

A further assay relates to TAB113. The description is as above. Conditions: P. falciparum in erythrocytes, SYBR Green DNA, 72 h; at 28.7 µM (top of the series) unless noted. A digest of the protocol: as §1
Regarding `O=[N+]([O-])OCC(CO[N+](=O)[O-])(CO[N+](=O)[O-])CO[N+](=O)[O-]`, the activity, negative = inhibition was inactive: -2.73%.

As for `CC(C)OP(=O)(F)OC(C)C`, the activity, negative = inhibition was inactive: 22%.

Turning to `O=[N+]([O-])c1cccc([N+](=O)[O-])c1`, the activity, negative = inhibition is inactive: 11.7%.

Consider `C/C1=C2N=C(/C=C3N=C(/C(C)=C4\[N-][C@@](C)([C@H]5N=C1[C@@](C)(CCC(=O)NC[C@H](C)OP(=O)([O-])O[C@@H]1[C@H](O)[C@H](n6cnc7cc(C)c(C)cc76)O[C@@H]1CO)[C@@H]5CC(N)=O)[C@](C)(CC(N)=O)[C@H]4CCC(N)=O)[C@@](C)(CC(N)=O)[C@@H]\3CCC(N)=O)C(C)(C)[C@@H]/2CCC(N)=O.[C-]#N.[Co+3]`, for which the activity, negative = inhibition is inactive: -3.5% [at 12.8 µM].

The subject of a further assay is TAB165. The description is as above. The following applies: P. falciparum in erythrocytes, SYBR Green DNA, 72 h; at 28.7 µM (top of the series) unless noted. The essentials: as §1
Regarding `O=[N+]([O-])OCC(CO[N+](=O)[O-])(CO[N+](=O)[O-])CO[N+](=O)[O-]`, the activity, negative = inhibition is inactive: -7.97%.

As for `CC(C)OP(=O)(F)OC(C)C`, the activity, negative = inhibition is inactive: -0.988%.

For the compound `O=[N+]([O-])c1cccc([N+](=O)[O-])c1`, the activity, negative = inhibition was inactive: -0.0221%.

For the compound `C/C1=C2N=C(/C=C3N=C(/C(C)=C4\[N-][C@@](C)([C@H]5N=C1[C@@](C)(CCC(=O)NC[C@H](C)OP(=O)([O-])O[C@@H]1[C@H](O)[C@H](n6cnc7cc(C)c(C)cc76)O[C@@H]1CO)[C@@H]5CC(N)=O)[C@](C)(CC(N)=O)[C@H]4CCC(N)=O)[C@@](C)(CC(N)=O)[C@@H]\3CCC(N)=O)C(C)(C)[C@@H]/2CCC(N)=O.[C-]#N.[Co+3]`, the activity, negative = inhibition is inactive: 9.65% [at 12.8 µM].
